From patent US5674835, “Papillomaviral expression inhibitors” (New England Medical Center Hospitals, Inc.)
At least one result comes from cells or an extract, where the contact may be indirect. Tags and fusion partners may be left off the protein sequences shown.

Biological target: T1, E2 protein from BPV-transformed C127 cells (ID14) nuclear fractions (Bovine papillomavirus type 1) (UniProt P03122)
T1 sequence (looked up, limits assumed): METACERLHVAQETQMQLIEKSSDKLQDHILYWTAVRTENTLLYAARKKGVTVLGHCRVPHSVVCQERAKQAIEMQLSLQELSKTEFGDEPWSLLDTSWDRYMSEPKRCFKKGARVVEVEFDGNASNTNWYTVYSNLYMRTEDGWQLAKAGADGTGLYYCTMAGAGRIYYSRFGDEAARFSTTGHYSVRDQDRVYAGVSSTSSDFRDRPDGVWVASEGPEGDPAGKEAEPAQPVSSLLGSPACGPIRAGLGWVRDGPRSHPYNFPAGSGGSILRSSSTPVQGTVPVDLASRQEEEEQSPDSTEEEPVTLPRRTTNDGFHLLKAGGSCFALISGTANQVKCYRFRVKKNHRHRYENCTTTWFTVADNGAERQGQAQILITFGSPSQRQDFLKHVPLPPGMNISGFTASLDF
Assay: competition with a labelled probe
Details: blocked immunoprecipitation of 233 bp fragment; protein in an extract

CGTCAAACCGTCTTCGGTGCTC (double strand) [23 bp URR fragment with E2 site IIIb]
binding result: binds
